# Patent US20220089698A1, “ANTIBODIES THAT TARGET HIV GP120 AND METHODS OF USE” (published 2022)
# Experiments:
# Test in all cases: cell-based or functional assay
# [1] = target: HIV-1 envelope glycoprotein (Env, gp120) of virus 7552 (HIV-1)
# [2] = target: HIV-1 envelope glycoprotein (Env, gp120) of virus 8318 (HIV-1)
# [3] = target: HIV-1 envelope glycoprotein (Env, gp120) of virus 8110 (HIV-1)
# [4] = target: HIV-1 envelope glycoprotein (Env, gp120) of virus 92HT593 (HIV-1)
# [5] = target: HIV-1 envelope glycoprotein (Env, gp120) of virus VS004 (HIV-1)
# [6] = target: HIV-1 envelope glycoprotein (Env, gp120) of virus VS039 (HIV-1)
# [7] = target: HIV-1 envelope glycoprotein (Env, gp120) of virus 1489 (HIV-1)
# [8] = target: HIV-1 envelope glycoprotein (Env, gp120) of virus REJO (HIV-1)
# [9] = target: HIV-1 envelope glycoprotein (Env, gp120) of virus 7595 (HIV-1)
# [10] = target: HIV-1 envelope glycoprotein (Env, gp120) of virus VS030 (HIV-1)
# [11] = target: HIV-1 envelope glycoprotein (Env, gp120) of virus THRO (HIV-1)
# [12] = target: HIV-1 envelope glycoprotein (Env, gp120) of virus VS049 (HIV-1)
# [13] = target: HIV-1 envelope glycoprotein (Env, gp120) of virus 8176 (HIV-1)
# [14] = target: HIV-1 envelope glycoprotein (Env, gp120) of virus VS026 (HIV-1)
# [15] = target: HIV-1 envelope glycoprotein (Env, gp120) of virus 92US657 (HIV-1)
# [16] = target: HIV-1 envelope glycoprotein (Env, gp120) of virus 7141 (HIV-1)
# [17] = target: HIV-1 envelope glycoprotein (Env, gp120) of virus 8134 (HIV-1)
# [18] = target: HIV-1 envelope glycoprotein (Env, gp120) of virus CHO77 (HIV-1)
# [19] = target: HIV-1 envelope glycoprotein (Env, gp120) of virus VS046 (HIV-1)
# [20] = target: HIV-1 envelope glycoprotein (Env, gp120) of virus 7015 (HIV-1)
# [21] = target: HIV-1 envelope glycoprotein (Env, gp120) of virus 302076 (HIV-1)
# [22] = target: HIV-1 envelope glycoprotein (Env, gp120) of virus VS043 (HIV-1)
# [23] = target: HIV-1 envelope glycoprotein (Env, gp120) of virus VS042 (HIV-1)
# [24] = target: HIV-1 envelope glycoprotein (Env, gp120) of virus 7467 (HIV-1)
# [25] = target: HIV-1 envelope glycoprotein (Env, gp120) of virus 7051 (HIV-1)
# [26] = target: HIV-1 envelope glycoprotein (Env, gp120) of virus 8117 (HIV-1)
# [27] = target: HIV-1 envelope glycoprotein (Env, gp120) of virus 7576 (HIV-1)
# [28] = target: HIV-1 envelope glycoprotein (Env, gp120) of virus VS044 (HIV-1)
# [29] = target: HIV-1 envelope glycoprotein (Env, gp120) of virus 1413 (HIV-1)
# [30] = target: HIV-1 envelope glycoprotein (Env, gp120) of virus 92US712 (HIV-1)
# [31] = target: HIV-1 envelope glycoprotein (Env, gp120) of virus 92US727 (HIV-1)
# [32] = target: HIV-1 envelope glycoprotein (Env, gp120) of virus 7103 (HIV-1)
# [33] = target: HIV-1 envelope glycoprotein (Env, gp120) of virus 8320 (HIV-1)
# [34] = target: HIV-1 envelope glycoprotein (Env, gp120) of virus 7714 (HIV-1)
# [35] = target: HIV-1 envelope glycoprotein (Env, gp120) of virus 8106 (HIV-1)
# [36] = target: HIV-1 envelope glycoprotein (Env, gp120) of virus VS001 (HIV-1)
# [37] = target: HIV-1 envelope glycoprotein (Env, gp120) of virus 1012 (HIV-1)
# [38] = target: HIV-1 envelope glycoprotein (Env, gp120) of virus VS017 (HIV-1)
binder,measurement,setting,value
"Antibody A-1 (antibody, human IgG1, kappa) heavy: QVQLLQSGAAVTKPGASVRVSCEASGYNIRDYFIHWWRQAPGQGLQWVGWINPKTGQPNNPRQFQGRVSLTRHASWDFDTFSFYMDLKALRSDDTAVYFCARQRSDYWDFDVWGSGTQVTVSSASTKGPSVFPLAPSSKSTSGGTAALGCLVKDYFPEPVTVSWNSGALTSGVHTFPAVLQSSGLYSLSSVVTVPSSSLGTQTYICNVNHKPSNTKVDKKVEPKSCDKTHTCPPCPAPELLAGPDVFLFPPKPKDTLMISRTPEVTCVVVDVSHEDPEVKFNWYVDGVEVHNAKTKPREEQYNSTYRVVSVLTVLHQDWLNGKEYKCKVSNKALPLPEEKTISKAKGQPREPQVYTLPPSREEMTKNQVSLTCLVKGFYPSDIAVEWESNGQPENNYKTTPPVLDSDGSFFLYSKLTVDKSRWQQGNVFSCSVLHEALHSHYTQKSLSLSPGK light: not shown",Virus Neutralization Potency,[1],12 µg/mL
same,Virus Neutralization Potency,[2],0.27 µg/mL
same,Virus Neutralization Potency,[3],3.64 µg/mL
same,Virus Neutralization Potency,[4],0.27 µg/mL
same,Virus Neutralization Potency,[5],2.66 µg/mL
same,Virus Neutralization Potency,[6],0.12 µg/mL
same,Virus Neutralization Potency,[7],0.12 µg/mL
same,Virus Neutralization Potency,[8],0.01 µg/mL
same,Virus Neutralization Potency,[9],4.88 µg/mL
same,Virus Neutralization Potency,[10],2.04 µg/mL
same,Virus Neutralization Potency,[11],2.8 µg/mL
same,Virus Neutralization Potency,[12],39.5 µg/mL
same,Virus Neutralization Potency,[13],0.26 µg/mL
same,Virus Neutralization Potency,[14],0.11 µg/mL
same,Virus Neutralization Potency,[15],0.38 µg/mL
same,Virus Neutralization Potency,[16],2.32 µg/mL
same,Virus Neutralization Potency,[17],1.57 µg/mL
same,Virus Neutralization Potency,[18],0.04 µg/mL
same,Virus Neutralization Potency,[19],0.04 µg/mL
same,Virus Neutralization Potency,[20],0.53 µg/mL
same,Virus Neutralization Potency,[21],0.08 µg/mL
same,Virus Neutralization Potency,[22],0.79 µg/mL
same,Virus Neutralization Potency,[23],2.53 µg/mL
same,Virus Neutralization Potency,[24],0.04 µg/mL
same,Virus Neutralization Potency,[25],0.79 µg/mL
same,Virus Neutralization Potency,[26],0.86 µg/mL
same,Virus Neutralization Potency,[27],0.69 µg/mL
same,Virus Neutralization Potency,[28],0.18 µg/mL
same,Virus Neutralization Potency,[29],5.31 µg/mL
same,Virus Neutralization Potency,[30],0.06 µg/mL
same,Virus Neutralization Potency,[31],2.43 µg/mL
same,Virus Neutralization Potency,[32],0.76 µg/mL
same,Virus Neutralization Potency,[33],2.2 µg/mL
same,Virus Neutralization Potency,[34],4.2 µg/mL
same,Virus Neutralization Potency,[35],2.72 µg/mL
same,Virus Neutralization Potency,[36],0.06 µg/mL
same,Virus Neutralization Potency,[37],1.41 µg/mL
same,Virus Neutralization Potency,[38],0.7 µg/mL
